Measured values published in patent US9198429B2, “Heterocyclic alkanol-derivatives” (BAYER INTELLECTUAL PROPERTY GMBH, priority 2011, dated 2015).

Tested on: Pyricularia oryzae
Experiment: Example D: Pyricularia test (rice)/induction of resistance
Details: 500 ppm, rice plants, induction of resistance, inoculation 4 days after treatment, evaluation 7 days after inoculation

In the case of `CC(C)(Cc1ccc(SC(F)(F)F)cc1)C(C)(O)Cc1cncs1` (stereo not shown), the “Efficacy (%)” value is reported as 70%.
